Compound potency records, mixed from different reports. Data source: NIAID ChemDB in PubChem.

Common to all: tests on isolated targets; agent: HIV-1; protein: Reverse transcriptase; endpoint: fold resistance

Conditions beyond the fields shown may differ between rows. Fold resistance has wild type as its base. Two numbers with a dash give a range or band. Blank or dashed fields: not listed here.

smiles,changes,strain or isolate,method,value
O=c1c2cccn2ccn1CCNC(=S)Nc1ccc(Br)cn1,RT-L100I,-,nucleotide incorporation,3.39
CCC1(c2cccc(Cl)c2)Cc2ccccc2-n2cccc2C1=O,RT-Y181I,-,nucleotide incorporation / radiometric,>3
CN(C)c1nc(Cc2c(F)cccc2F)cc(=O)[nH]1,RT-K103N,IIIB,nucleotide incorporation / radiometric,37.5
CCc1cc(CCc2nc3ccccc3o2)c(=O)[nH]c1C,RT-K103N Y181C,-,nucleotide incorporation,4100
Cc1c(Cc2c(Cl)cccc2Cl)nc(SCc2ccc(F)cc2)[nH]c1=O,RT-181I,-,nucleotide incorporation / radiometric,>25
CCc1cc(CCc2nc3c(Cl)ccc(Cl)c3o2)c(=S)[nH]c1C,RT-K103N,-,nucleotide incorporation,5
Cc1c(C(C)c2c(F)cccc2F)nc(SC2CCCC2)[nH]c1=O,RT-Y181I,-,nucleotide incorporation / radiometric,180
CC(C)=CCOc1cc(NC(=S)c2ccoc2C)ccc1Cl,RT-V106A,-,nucleotide incorporation / radiometric,25
CCC1(c2ccc(COc3ccccc3)cc2)Oc2ccccc2-n2cccc2C1=O,RT-Y181I,-,nucleotide incorporation / radiometric,4.6
CCN1c2ncc(CCOc3ccc(/C=C(\C)C(=O)O)c4ccccc34)cc2C(=O)Nc2c(C)cc(F)nc21,RT-K103N Y181C,-,nucleotide incorporation / radiometric,1–10
CCC1(c2ccc(CNc3cccc(F)c3)cc2)Oc2ccccc2-n2cccc2C1=O,RT-V106A,-,nucleotide incorporation / radiometric,3.75
CCN1c2ncc(CCOc3ccc(CCC(=O)O)c4ccccc34)cc2C(=O)N(C)c2ccc(C)nc21,RT-Y188L,-,nucleotide incorporation / radiometric,>10
C/C=C/CSc1cc(NC(=S)c2ccsc2C)ccc1Cl,RT-L74V,-,-,1.04
CCN1c2ncc(CCOc3ccc(/C(C)=C/C(=O)O)c4ccccc34)cc2C(=O)N(C)c2cccnc21,RT-K103N Y181C,-,nucleotide incorporation / radiometric,1–10
CNc1ccc(Cl)cc1S(=O)(=O)c1ccccc1[N+](=O)[O-],RT-Y188L,-,-,9.09
O=C1c2cccnc2C(=O)N1CCNC(=S)Nc1ccc(Br)cn1,RT-L100I,-,nucleotide incorporation,10.5
Nc1nc2c(ncn2[C@H]2C[C@H](O)[C@@H](COP(=O)(O)OP(=O)(O)OP(=O)(O)O)O2)c(=O)[nH]1,RT-K65R,-,nucleotide incorporation / radiometric,1.85
Cc1c(Cc2c(Cl)cccc2Cl)nc(SCc2ccc3c(c2)OCO3)[nH]c1=O,RT-K103N,-,nucleotide incorporation / radiometric,>800
O=C(O)Cn1cnc2c(Oc3ccccc3[N+](=O)[O-])nc(NC(=O)OCc3ccccc3)nc21,Y188L,NNRTI-resistant,nucleotide incorporation / radiometric,11.6
Nc1ccn([C@H]2CC[C@@H](COP(=O)(O)OP(=O)(O)OP(=O)(O)O)O2)c(=O)n1,RT-M184V,-,nucleotide incorporation / radiometric,6.67
Nc1ccn([C@H]2CC[C@@H](COP(=O)(O)OP(=O)(O)OP(=O)(O)O)O2)c(=O)n1,RT-V106A,-,nucleotide incorporation / radiometric,0.68
Cc1cn([C@H]2C=C[C@@H](COP(=O)(O)OP(=O)(O)OP(=O)(O)O)O2)c(=O)[nH]c1=O,RT-K103N,-,RT activity,1.5
Cc1c(Cc2c(Cl)cccc2Cl)nc(SCc2ccc(C#N)cc2)[nH]c1=O,RT-181I,-,nucleotide incorporation / radiometric,>3.88
CCN1c2ncc(CCOc3ccc(C(=O)O)c4ccccc34)cc2C(=O)Nc2c(C)cc(Cl)nc21,RT-K103N Y181C,-,nucleotide incorporation / radiometric,1–10
CC(C)=CCOc1cc(NC(=S)c2ccoc2C)ccc1Cl,RT-M184V,-,-,1.31
Nc1ccn([C@@H]2CS[C@H](COP(=O)(O)OP(=O)(O)OP(=O)(O)O)O2)c(=O)n1,RT-M184V,-,nucleotide incorporation / radiometric,71.54
Cc1ccc2c(c1)n(CCNC(=S)Nc1ccc(Br)cn1)c(=O)c1cccn12,RT-Y181I,-,nucleotide incorporation,35
CCC1(c2ccc(COc3ccccc3Cl)cc2)Oc2ccccc2-n2cccc2C1=O,RT-Y188L,-,nucleotide incorporation / radiometric,>10
COc1ccc(CSc2nc(Cc3ccc(F)cc3)c(C)c(=O)[nH]2)cc1,RT-K103N,-,nucleotide incorporation / radiometric,~1
Cc1c(C(C)c2c(F)cccc2F)nc(N(C)C)[nH]c1=O,RT-K103N,-,nucleotide incorporation / radiometric,7
CC(C)=CCN1Cc2cccc3[nH]c(=S)n(c23)C[C@@H]1C,RT-H208Y,-,-,1.1
O=C1c2ccncc2C(=O)N1CCNC(=S)Nc1ccc(Br)cn1,RT-K103N,-,nucleotide incorporation,14.3
CCOc1cccc(C2(CC)Oc3ccccc3-n3cccc3C2=O)c1,RT-Y181I,-,nucleotide incorporation / radiometric,2.76
CCOCn1c(Cc2ccccc2)c(C(C)C)c(=O)[nH]c1=O,RT-V106A P225H,-,nucleotide incorporation / radiometric,113
O=c1c2cccn2c2ccccc2n1CCNC(=S)Nc1ccc(Cl)cn1,RT-Y181I,-,nucleotide incorporation,>50
CCC1(c2ccc(COc3cccnc3)cc2)Oc2ccccc2-n2cccc2C1=O,RT-K103N,-,nucleotide incorporation / radiometric,5
Cc1c(Cc2c(Cl)cccc2Cl)nc(SCc2ccc(Cl)cc2)[nH]c1=O,RT-K103N,-,nucleotide incorporation / radiometric,>20
CC(C)(C)OC(=O)Cn1cnc2c(Oc3ccccc3[N+](=O)[O-])nc(NC(=O)OCc3ccccc3)nc21,Y181I,NNRTI-resistant,nucleotide incorporation / radiometric,10.8
CC(C)=CCN1Cc2cc(Cl)cc3[nH]c(=O)n(c23)C[C@@H]1C,RT-P225H,-,nucleotide incorporation / radiometric,2
c1ccc(C2SCc3nc4ccccc4n32)cc1,RT-Y188L,-,-,>2
Cc1cn([C@H]2C=C[C@@H](COP(=O)(O)OP(=O)(O)OP(=O)(O)O)O2)c(=O)[nH]c1=O,RT-A62V V75I F77L F116Y Q151M,-,nucleotide incorporation / radiometric,10
O=c1c2cccn2c2cc(Cl)c(Cl)cc2n1CCNC(=S)Nc1ccc(Br)cn1,RT-Y181I,-,nucleotide incorporation,15
Cc1occc1C(=S)Nc1ccc(Cl)c(/C=N/OC(C)(C)C)c1,RT-M184V,-,-,1.02
CCC1(c2cccc(N)c2)Oc2ccccc2-n2cccc2C1=O,RT-Y188L,-,nucleotide incorporation / radiometric,>33.3
Cc1cn([C@H]2C=C[C@@H](COP(=O)(O)OP(=O)(O)OP(=O)(O)O)O2)c(=O)[nH]c1=O,RT-N137A,-,nucleotide incorporation / radiometric,0.9
CCC1(c2cccc(I)c2)Oc2ccccc2-n2cccc2C1=O,RT-Y188L,-,nucleotide incorporation / radiometric,>200
Cc1cc(S(N)(=O)=O)ccc1NC(=O)COc1ccc(Cl)cc1C(=O)c1cc(Cl)cc(C#N)c1,RT-K103N,-,fluorescence,1.05

A second listing of 4 rows from above:

smiles | changes | strain or isolate | method | value
Cc1cn([C@H]2C=C[C@@H](COP(=O)(O)OP(=O)(O)OP(=O)(O)O)O2)c(=O)[nH]c1=O | RT-N137A | - | nucleotide incorporation / radiometric | 0.9
O=C(O)Cn1cnc2c(Oc3ccccc3[N+](=O)[O-])nc(NC(=O)OCc3ccccc3)nc21 | Y188L | NNRTI-resistant | nucleotide incorporation / radiometric | 11.6
Cc1c(C(C)c2c(F)cccc2F)nc(N(C)C)[nH]c1=O | RT-K103N | - | nucleotide incorporation / radiometric | 7
CNc1ccc(Cl)cc1S(=O)(=O)c1ccccc1[N+](=O)[O-] | RT-Y188L | - | - | 9.09